{
  "source": "patent US11180744B2",
  "about": "“Acinetobacter lysins” (priority 2014, dated 2021)",
  "system": "A. baumannii strain no. 1791",
  "experiment": "Mouse skin infection model",
  "conditions": "200 μg of P307SQ-8C or 2 μg of polymyxin B for 2 hours; p-value=0.0023, ordinary one-way ANOVA",
  "data": [
    {"substance": "Polymyxin B [reference compound]", "values": [
      {"measurement": "bacterial load on infected skin", "value": "reduce the bacterial load significantly"}
    ]}
  ]
}
